# From ChEMBL document CHEMBL3988442, “University of Dundee, Small-Polar-MMV Screening Library” (2021)
# By UniProt entry, the sequences of proteins in these tests, tags left out. Residues count along the entry.
# UniProt E9BF75, entry or part of it: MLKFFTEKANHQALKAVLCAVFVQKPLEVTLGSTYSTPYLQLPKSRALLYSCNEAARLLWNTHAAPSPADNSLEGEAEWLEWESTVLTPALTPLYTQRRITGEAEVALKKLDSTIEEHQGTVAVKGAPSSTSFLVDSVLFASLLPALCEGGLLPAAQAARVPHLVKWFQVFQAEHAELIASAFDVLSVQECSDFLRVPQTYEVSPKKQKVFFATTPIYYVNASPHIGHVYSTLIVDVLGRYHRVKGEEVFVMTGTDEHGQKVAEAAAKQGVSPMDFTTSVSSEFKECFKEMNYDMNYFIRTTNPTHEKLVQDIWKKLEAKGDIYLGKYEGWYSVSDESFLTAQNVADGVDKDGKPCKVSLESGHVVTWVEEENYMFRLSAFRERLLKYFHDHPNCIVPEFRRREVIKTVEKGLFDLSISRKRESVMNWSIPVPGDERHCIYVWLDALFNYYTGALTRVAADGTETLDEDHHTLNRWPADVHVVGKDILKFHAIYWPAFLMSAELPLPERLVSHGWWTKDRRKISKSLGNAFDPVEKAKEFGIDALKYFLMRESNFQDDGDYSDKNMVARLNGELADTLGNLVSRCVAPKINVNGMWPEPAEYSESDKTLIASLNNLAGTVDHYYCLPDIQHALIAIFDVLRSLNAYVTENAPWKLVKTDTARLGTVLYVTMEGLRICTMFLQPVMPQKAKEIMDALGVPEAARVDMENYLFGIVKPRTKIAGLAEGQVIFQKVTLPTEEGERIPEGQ
# UniProt P9WNZ1, whole entry: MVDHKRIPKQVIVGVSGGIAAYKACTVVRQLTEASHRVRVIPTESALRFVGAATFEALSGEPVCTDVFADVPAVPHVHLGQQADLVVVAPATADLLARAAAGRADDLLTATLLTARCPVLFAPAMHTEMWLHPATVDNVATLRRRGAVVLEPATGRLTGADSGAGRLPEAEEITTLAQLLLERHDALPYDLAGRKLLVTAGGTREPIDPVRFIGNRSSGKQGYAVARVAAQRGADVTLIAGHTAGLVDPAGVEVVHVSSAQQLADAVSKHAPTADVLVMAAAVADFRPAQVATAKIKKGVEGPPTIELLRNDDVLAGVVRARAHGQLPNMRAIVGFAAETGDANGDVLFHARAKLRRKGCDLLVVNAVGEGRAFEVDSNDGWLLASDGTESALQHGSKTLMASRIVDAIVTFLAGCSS
# UniProt Q8IDJ8, 1-583: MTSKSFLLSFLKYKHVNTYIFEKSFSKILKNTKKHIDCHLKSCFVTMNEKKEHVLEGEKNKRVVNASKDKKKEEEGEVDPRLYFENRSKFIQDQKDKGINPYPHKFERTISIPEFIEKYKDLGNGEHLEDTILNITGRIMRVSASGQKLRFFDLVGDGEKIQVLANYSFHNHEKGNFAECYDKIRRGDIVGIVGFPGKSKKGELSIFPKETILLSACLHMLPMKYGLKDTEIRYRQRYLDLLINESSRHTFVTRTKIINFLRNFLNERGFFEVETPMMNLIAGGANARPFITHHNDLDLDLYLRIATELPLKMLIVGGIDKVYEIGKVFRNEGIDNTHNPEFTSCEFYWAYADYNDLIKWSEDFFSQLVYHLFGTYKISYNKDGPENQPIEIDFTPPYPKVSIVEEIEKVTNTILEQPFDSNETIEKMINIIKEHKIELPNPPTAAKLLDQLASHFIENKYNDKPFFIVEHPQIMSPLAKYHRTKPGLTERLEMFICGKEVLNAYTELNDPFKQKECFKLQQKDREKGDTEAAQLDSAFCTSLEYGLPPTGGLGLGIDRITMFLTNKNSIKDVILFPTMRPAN
# UniProt Q4DA54, 1-478: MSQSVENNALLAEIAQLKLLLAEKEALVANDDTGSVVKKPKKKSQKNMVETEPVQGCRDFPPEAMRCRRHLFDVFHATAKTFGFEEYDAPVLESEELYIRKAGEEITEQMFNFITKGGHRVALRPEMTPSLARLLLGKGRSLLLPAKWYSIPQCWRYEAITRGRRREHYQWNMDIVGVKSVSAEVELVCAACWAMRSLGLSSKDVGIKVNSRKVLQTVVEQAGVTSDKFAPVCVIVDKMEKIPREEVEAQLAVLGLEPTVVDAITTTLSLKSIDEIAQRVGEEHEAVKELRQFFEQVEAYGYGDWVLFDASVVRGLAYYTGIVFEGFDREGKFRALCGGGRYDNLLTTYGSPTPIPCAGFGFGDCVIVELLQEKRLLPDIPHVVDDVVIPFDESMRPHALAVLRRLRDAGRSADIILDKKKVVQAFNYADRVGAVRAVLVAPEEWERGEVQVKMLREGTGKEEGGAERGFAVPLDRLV
# UniProt P9WFT3, whole entry: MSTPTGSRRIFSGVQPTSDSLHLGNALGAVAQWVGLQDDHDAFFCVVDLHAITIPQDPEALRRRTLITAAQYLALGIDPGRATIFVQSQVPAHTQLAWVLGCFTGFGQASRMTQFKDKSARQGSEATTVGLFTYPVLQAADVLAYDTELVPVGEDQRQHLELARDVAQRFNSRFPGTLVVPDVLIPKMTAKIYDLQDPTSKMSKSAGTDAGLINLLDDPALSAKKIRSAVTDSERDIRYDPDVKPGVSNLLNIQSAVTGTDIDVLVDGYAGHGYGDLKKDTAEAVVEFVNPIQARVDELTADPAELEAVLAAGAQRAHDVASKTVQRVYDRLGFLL
# UniProt A4I591, 1-473: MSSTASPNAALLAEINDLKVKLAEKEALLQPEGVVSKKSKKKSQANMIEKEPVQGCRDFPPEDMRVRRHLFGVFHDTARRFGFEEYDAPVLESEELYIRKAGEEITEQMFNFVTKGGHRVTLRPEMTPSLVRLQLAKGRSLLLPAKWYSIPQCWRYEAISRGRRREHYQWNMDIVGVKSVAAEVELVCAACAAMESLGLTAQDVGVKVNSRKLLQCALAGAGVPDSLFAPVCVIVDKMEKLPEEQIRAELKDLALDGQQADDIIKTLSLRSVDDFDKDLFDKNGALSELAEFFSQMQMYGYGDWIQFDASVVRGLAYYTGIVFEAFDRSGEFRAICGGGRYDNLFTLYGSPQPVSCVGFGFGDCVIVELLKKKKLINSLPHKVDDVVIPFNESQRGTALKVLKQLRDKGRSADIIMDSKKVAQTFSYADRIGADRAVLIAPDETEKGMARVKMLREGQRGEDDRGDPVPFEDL
# UniProt I6X8D2, whole entry: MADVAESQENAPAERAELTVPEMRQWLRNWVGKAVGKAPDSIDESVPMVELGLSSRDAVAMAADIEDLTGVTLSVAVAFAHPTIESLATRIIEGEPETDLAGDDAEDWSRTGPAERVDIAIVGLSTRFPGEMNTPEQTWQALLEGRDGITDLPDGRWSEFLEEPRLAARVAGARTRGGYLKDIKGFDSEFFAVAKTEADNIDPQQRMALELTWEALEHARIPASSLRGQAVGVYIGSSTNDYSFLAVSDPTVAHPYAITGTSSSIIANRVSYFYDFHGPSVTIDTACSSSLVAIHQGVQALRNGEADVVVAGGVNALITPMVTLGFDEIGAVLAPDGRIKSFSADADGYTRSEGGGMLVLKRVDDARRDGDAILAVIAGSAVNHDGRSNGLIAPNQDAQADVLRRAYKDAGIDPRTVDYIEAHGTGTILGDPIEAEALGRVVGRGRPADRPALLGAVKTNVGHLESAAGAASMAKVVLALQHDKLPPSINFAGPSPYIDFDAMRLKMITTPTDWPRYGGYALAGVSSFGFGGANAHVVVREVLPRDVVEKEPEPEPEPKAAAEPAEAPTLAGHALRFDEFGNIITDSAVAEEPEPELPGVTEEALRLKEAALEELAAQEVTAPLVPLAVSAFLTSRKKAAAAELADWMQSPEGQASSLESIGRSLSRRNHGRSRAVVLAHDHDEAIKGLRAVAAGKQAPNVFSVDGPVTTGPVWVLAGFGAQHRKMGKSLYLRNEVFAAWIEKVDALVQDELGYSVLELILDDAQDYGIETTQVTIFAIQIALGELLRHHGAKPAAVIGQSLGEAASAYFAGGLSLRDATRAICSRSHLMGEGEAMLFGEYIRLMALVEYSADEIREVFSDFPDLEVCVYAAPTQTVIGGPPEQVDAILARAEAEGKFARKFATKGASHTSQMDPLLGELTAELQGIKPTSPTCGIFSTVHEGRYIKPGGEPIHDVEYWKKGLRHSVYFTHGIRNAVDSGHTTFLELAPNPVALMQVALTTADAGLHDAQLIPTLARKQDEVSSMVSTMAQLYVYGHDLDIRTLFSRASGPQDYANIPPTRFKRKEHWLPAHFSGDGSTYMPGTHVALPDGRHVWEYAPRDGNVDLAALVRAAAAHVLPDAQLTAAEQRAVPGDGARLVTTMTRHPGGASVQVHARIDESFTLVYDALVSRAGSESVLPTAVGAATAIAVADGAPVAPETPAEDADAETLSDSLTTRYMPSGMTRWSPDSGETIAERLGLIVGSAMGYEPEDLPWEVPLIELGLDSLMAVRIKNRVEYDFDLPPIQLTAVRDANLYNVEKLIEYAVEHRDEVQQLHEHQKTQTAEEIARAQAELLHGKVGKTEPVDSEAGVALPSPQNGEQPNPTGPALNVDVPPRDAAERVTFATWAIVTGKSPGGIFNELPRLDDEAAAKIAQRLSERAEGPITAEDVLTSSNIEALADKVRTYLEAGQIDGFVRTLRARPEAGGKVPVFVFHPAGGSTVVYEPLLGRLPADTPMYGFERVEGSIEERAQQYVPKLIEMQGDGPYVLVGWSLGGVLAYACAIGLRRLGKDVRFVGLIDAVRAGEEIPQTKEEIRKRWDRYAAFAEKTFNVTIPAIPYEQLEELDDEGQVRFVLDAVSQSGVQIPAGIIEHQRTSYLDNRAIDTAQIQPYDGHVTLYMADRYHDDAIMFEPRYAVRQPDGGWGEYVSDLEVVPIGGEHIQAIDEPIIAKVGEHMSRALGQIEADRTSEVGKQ
# UniProt P9WPC5, whole entry: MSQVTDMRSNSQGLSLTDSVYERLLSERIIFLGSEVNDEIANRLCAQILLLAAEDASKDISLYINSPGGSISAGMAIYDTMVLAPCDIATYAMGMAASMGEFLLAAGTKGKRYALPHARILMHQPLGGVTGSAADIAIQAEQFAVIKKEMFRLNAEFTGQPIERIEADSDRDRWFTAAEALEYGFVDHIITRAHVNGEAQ
# UniProt P9WPC3, whole entry partner: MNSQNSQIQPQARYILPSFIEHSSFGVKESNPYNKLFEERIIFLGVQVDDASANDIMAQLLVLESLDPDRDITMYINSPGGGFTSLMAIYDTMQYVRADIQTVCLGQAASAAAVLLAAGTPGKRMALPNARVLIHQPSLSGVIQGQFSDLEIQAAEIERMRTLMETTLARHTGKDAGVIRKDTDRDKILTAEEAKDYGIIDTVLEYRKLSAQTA
# The list shows a part of the results, in another mix than the full data.
# Assays:
# Type in all cases: functional
# [1] = target: Methionyl-tRNA synthetase, putative (Leishmania donovani (strain BPK282A1)) (UniProt E9BF75); test: Leishmania donovani Methionine tRNA synthetase (LdMetRS):v6. Primary screen assay; parameters: conc 80 nM, time 150 minutes
# [2] = target: Coenzyme A biosynthesis bifunctional protein CoaBC (Mycobacterium tuberculosis (strain ATCC 25618 / H37Rv)) (UniProt P9WNZ1); test: Biomol Green assay for MtCoaBC inhibitor, OD650 read; parameters: scale not given: in the data most compounds retested in dose-response had high values; conditions: 30 µM
# [3] = target: Lysine--tRNA ligase (Plasmodium falciparum (isolate 3D7)) (UniProt Q8IDJ8); test: Pf-KRS-1 (Lysyl-RNA Synthetase-1, KRS-1, cytosolic KRS) from Plasmodium falciparum. Inhibitor assay, 384 well plate, luminescence read.; parameters: scale not given: direction of the effect not stated beside the values; conditions: 30 µM; note: in the data most compounds retested in dose-response had high values
# [4] = target: Histidine--tRNA ligase (Trypanosoma cruzi (strain CL Brener)) (UniProt Q4DA54); test: Trypanosoma cruzi histidyl tRNA synthetase (Tc-HisRS); parameters: scale not given: direction of the effect not stated beside the values; conditions: 30 µM
# [5] = target: Tryptophan--tRNA ligase (Mycobacterium tuberculosis (strain ATCC 25618 / H37Rv)) (UniProt P9WFT3); test: Biochemical assay for Mt-TrpRS; parameters: scale not given: direction of the effect not stated beside the values; conditions: 10 µM
# [6] = target: Histidine--tRNA ligase (Leishmania infantum) (UniProt A4I591); test: Leishmania infantum Histidine tRNA synthetase (LdHisRS); parameters: scale not given: in the data most compounds retested in dose-response had high values; conditions: 30 µM
# [7] = target: Polyketide synthase Pks13 (Mycobacterium tuberculosis (strain ATCC 25618 / H37Rv)) (UniProt I6X8D2); test: Mycobacterium tuberculosis Polyketide synthase 13 Thioesterase (PKS13); parameters: scale not given: in the data most compounds retested in dose-response had high values; conditions: 30 µM
# [8] = target: ClpP1P2 (Mycobacterium tuberculosis (strain ATCC 25618 / H37Rv)) (UniProt P9WPC5+P9WPC3); test: in vitro assay to detect presence of AMC directly proportional to the activity of ClpP1P2. GHDDI collaboration.; parameters: scale not given: direction of the effect not stated beside the values; conditions: 50 µM
Structure (SMILES),inhibition [1],Percent Effect [2],Percent Effect [3],Percent Effect [4],Percent Effect [5],Percent Effect [6],Percent Effect [7],Percent Effect [8]
Cc1cccc(NC2CCN(Cc3nnc(C(C)C)o3)CC2)c1,20.3%,1.63%,8.5%,6.88%,-2.48%,23.5%,-23.3%,1.79%
COc1ccc(OC)c(NC2CCN(C)CC2)c1,3.67%,-19.7%,6.78%,-0.529%,2.41%,20%,-1.39%,0.0146%
COc1ccc(NC2CCN(CCc3ccccc3)CC2)cc1OC,2.94%,-20.7%,2.63%,15.6%,-5.75%,62.7%,-1.61%,3.27%
COc1ccccc1NC1CCN(Cc2scnc2C)CC1,3.79%,-1.28%,0.887%,0%,-2.5%,5%,-0.821%,-4.39%
Cc1nnc(C(C)N2CCC(Nc3ccccc3C)CC2)o1 (stereo not drawn),9.29%,5.14%,-4.34%,4.48%,0.306%,1.21%,-10.8%,-4.17%
Fc1ccccc1NC1CCNCC1,15%,1.18%,2.63%,10.3%,-3.54%,16.5%,-16.4%,1.91%
NC1(CNC(=O)c2cc3ccccc3[nH]2)CCCCC1,8.61%,3.15%,3.75%,-7.96%,–,1.98%,-8.35%,-1.51%
COc1ccccc1NC1CCN(Cc2nc(C)ccc2O)CC1,10.3%,8.29%,5.36%,0.87%,0.356%,10%,-23.4%,-8.53%
COc1cccc(NC2CCNCC2)c1,17.2%,-2.83%,7.18%,11.3%,-4%,20.9%,-11.1%,3.27%
COc1ccc(OC)c(NC2CCN(Cc3ccc(Br)cc3)CC2)c1,12.1%,-0.521%,-1.66%,4.66%,1.54%,7.87%,-12.8%,-11%
COc1ccc2[nH]c(C(=O)NCC3(N)CCCCC3)cc2c1,7.5%,0.728%,5.32%,2.27%,–,7.92%,16.4%,-3.9%
COc1cc(NC2CCNCC2)cc(OC)c1,7.1%,-37.8%,0.401%,1.59%,1e-14%,-2.74%,-5.71%,6.69%
COc1ccc(NC2CCN(C)CC2)cc1OC,9.89%,-10.3%,3.37%,5.2%,-8.93%,33.3%,-21.2%,2.57%
COc1ccccc1NC1CCN(Cc2ccc(Br)cc2)CC1,6.5%,-3.78%,4.74%,8.99%,-2.95%,9.33%,-13.5%,-5.9%
CC1(C)CN(C2(CNC(=O)c3csnn3)CCCCC2)CCO1,20.4%,-0.472%,3.67%,4.12%,-1.69%,16.5%,-12.6%,1.42%
Cc1cccc(NC2CCN(Cc3nnc(C4CC4)o3)CC2)c1,9.77%,0.407%,7.82%,3.7%,-1.69%,23.5%,-15.4%,13.6%
COc1ccc(CN2CCC(Nc3ccc(Br)cc3)CC2)c(OC)c1,9.38%,-5.99%,-0.294%,7.77%,-0.405%,3.37%,-0.237%,-15.2%
CC1(C)CN(C2(CNC(=O)c3cnns3)CCCCC2)CCO1,19.3%,-12.5%,7.91%,7.22%,-1.39%,9.89%,5.56%,2.11%
COc1ccc(CN2CCC(Nc3ccc(Br)cc3)CC2)cc1OC,-8.01%,-16.7%,3.09%,9.85%,0.89%,5.62%,-1.86%,-15.4%
Cc1ccc(NC2CCN(C(C)c3nnc(C)o3)CC2)cc1 (stereo not drawn),18%,7.65%,5.85%,11.4%,1.68%,20.5%,10.8%,-3.37%
CCN1CCC(Nc2ccc(OC)c(OC)c2)CC1,5.08%,-22.3%,11.1%,1.73%,0.0884%,76%,-3.92%,7.72%
COc1ccccc1NC1CCN(Cc2nc(C)c(C)s2)CC1,1.63%,-1.28%,-7.86%,1.74%,-1.21%,5%,0.574%,-14%
CC1(C)CN(C2(CNC(=O)c3c[nH]nn3)CCCCC2)CCO1,16.6%,-8.26%,6.75%,6.19%,-1.85%,16.5%,-52.6%,7.05%
CCCN1CCC(Nc2ccc(OC)c(OC)c2)CC1,9.36%,-18.2%,9.14%,28.3%,0.973%,44%,0.0408%,2.65%
COc1cc(NC2CCN(C(C)c3nnc(C)o3)CC2)cc(OC)c1 (stereo not drawn),18.6%,9.91%,-0.322%,8.46%,1.53%,15.7%,-3.61%,-4.88%
CCN1CCC(N(C(=O)c2cc(C)no2)c2ccccc2OC)CC1,18%,10.4%,12.8%,5.7%,0.75%,21.5%,-22.5%,3.71%
Cc1cccc(NC2CCN(Cc3nc(C)c(C)o3)CC2)c1,8.27%,-5.7%,-0.141%,3.7%,9.81%,2.94%,-10.9%,2.65%
Brc1ccccc1NC1CCNCC1,13.4%,-13%,3.12%,4.12%,0.308%,14.3%,-12.7%,3.84%
COc1ccccc1NC1CCN(Cc2ccc(Br)s2)CC1,10.3%,4.55%,3.46%,2.61%,-0.0713%,10%,17.7%,4.15%
Cc1ccccc1NC1CCNCC1,14.5%,-2.59%,0.193%,-4.12%,1.23%,12.1%,-18.6%,6.69%
